A mixed list of measured activities; the numbers were collected in NIAID ChemDB.

Common to all: tests in culture; organism: HIV-1; measure: EC50

Rows are shuffled and stem from different studies. ECn: concentration that inhibits the pathogen or its effect by n%. An empty or dashed field is not shown.

structure,conditions,strain,cells,read by,mutations,value
O=C(NCc1ccccc1)c1ccccc1SSc1ccccc1C(=O)NCc1ccccc1,,,CEM,XTT,,5 µM
S=C(NCc1ccco1)Nc1nc2ccccc2s1,,IIIB,MT-4,MTT,,>67 µM
CNc1ncnc2c1ncn2[C@@H]1O[C@H](CO)C[C@@H]1N=[N+]=[N-],,IIIB,MT-4,,,>101 µg/mL
Cc1cc(/C=C/C#N)cc(C)c1Nc1ccnc(Nc2ccc(C#N)cc2)n1,,BaL,TZM-bl,luciferase,Y181C,0.0025 µM
O=C1CSC(c2c(F)cccc2F)N1c1cccc(Cl)c1,,IIIB,MT-4,cytopathic effect,,1.44 µM
CCN(CC)C(=O)Oc1ccc2cccnc2c1-c1cccc2cccnc12,pseudotyped,YU2,TZM-bl,luciferase,,2.3 µM
CC(C)C1=C2[C@H]3CC[C@@H]4[C@@]5(C)CC[C@H](OC(=O)[C@H]6C[C@@H](C(=O)O)C6(C)C)C(C)(C)[C@@H]5CC[C@@]4(C)[C@]3(C)CC[C@@]2([C@@H](O)CNC(=O)C(C)(C)NC(=O)c2ccc3nc[nH]c3c2)CC1=O,,92HT599,MT-2,p24 / ELISA,,<1 µM
O=C(Nc1ccc(Br)cc1)c1ccccc1SSc1ccccc1C(=O)Nc1ccc(Br)cc1,,,CEM,XTT,,17 µM
CC(C)C1=C2[C@H]3CC[C@@H]4[C@@]5(C)CC[C@H](OC(=O)[C@H]6C[C@@H](C(=O)O)C6(C)C)C(C)(C)[C@@H]5CC[C@@]4(C)[C@]3(C)CC[C@@]2([C@@H](O)CNC(=O)c2ccc3nc(-c4ccccc4)[nH]c3c2)CC1=O,,92HT599,MT-2,p24 / ELISA,,<1 µM
COC(=O)[C@H](Cc1ccccc1)NP(=O)(OC[C@@H]1C=C[C@H](n2ccc3c(N)ncnc32)C1)Oc1ccccc1,,IIIB,MT-4,cytopathic effect / trypan blue,,29 µM
Nc1nc2c(ncn2[C@H]2C=C[C@@H](CO)O2)c(=O)o1,,IIIB,U-937/HIV-1(IIIB) + U-937,RT activity,,13 µg/mL
CC(C)C1=C2[C@H]3CC[C@@H]4[C@@]5(C)CC[C@H](OC(=O)[C@H]6C[C@@H](C(=O)O)C6(C)C)C(C)(C)[C@@H]5CC[C@@]4(C)[C@]3(C)CC[C@@]2([C@@H](O)CN(CCN(C)C)C(=O)c2cncnc2)CC1=O,,92HT599,MT-2,p24 / ELISA,,<1 µM
Cc1cccc(N2C(=O)CSC2c2c(F)cccc2F)c1,,IIIB,MT-4,cytopathic effect,,0.688 µM
Nc1ccccc1SSc1ccccc1N,,,CEM,XTT,,>53 µM
CCc1cccc(N2C(=O)CSC2c2c(F)cccc2Cl)c1,,IIIB,MT-4,cytopathic effect,,0.21 µM
NC(N)=Nc1cccc(OCc2ccc(Cl)cc2)c1,,,HUT4-3/SX22-1,β-galactosidase / cell fusion,,>10 µM
COC(=O)C(C)(C)NP(=O)(OC[C@H]1C=C[C@@H](n2ccc3c(N)ncnc32)C1)Oc1ccccc1,,IIIB,MT-4,cytopathic effect / trypan blue,,0.3 µM
CC(=O)NS(=O)(=O)c1ccc(NC(=O)c2ccccc2SSc2ccccc2C(=O)Nc2ccc(S(=O)(=O)NC(C)=O)cc2)cc1,,,CEM,XTT,,16 µM
CC(C)C1=C2[C@H]3CC[C@@H]4[C@@]5(C)CC[C@H](OC(=O)[C@H]6C[C@@H](C(=O)O)C6(C)C)C(C)(C)[C@@H]5CC[C@@]4(C)[C@]3(C)CC[C@@]2([C@@H](O)CNC(=O)C(C)(C)NC(=O)CN2CCS(=O)(=O)CC2)CC1=O,,92HT599,MT-2,p24 / ELISA,,<1 µM
O=C1CSC(c2c(F)cccc2F)N1c1cc(Cl)cc(Cl)c1,,IIIB,MT-4,cytopathic effect,,0.97 µM
CC(C)C1=C2[C@H]3CC[C@@H]4[C@@]5(C)CC[C@H](OC(=O)[C@H]6C[C@@H](C(=O)O)C6(C)C)C(C)(C)[C@@H]5CC[C@@]4(C)[C@]3(C)CC[C@@]2([C@@H](O)CNCC(C)(C)NC(=O)c2ccc3nc[nH]c3c2)CC1=O,,92HT599,MT-2,p24 / ELISA,,<1 µM
Cc1cc(C)cc(N2C(=O)CSC2c2c(F)cccc2Cl)c1,,IIIB,MT-4,cytopathic effect,,0.09 µM
CC(NC(=S)Nc1nc2ccccc2s1)c1ccccc1,,IIIB,MT-4,MTT,AZT-resistant,0.8 µM
N=C(N)c1cccc(OCc2ccc(OCc3ccccc3)cc2)c1,,,HUT4-3/SX22-1,β-galactosidase / cell fusion,,>10 µM
CCc1cccc(N2C(=O)CSC2c2c(Cl)cccc2Cl)c1,,IIIB,MT-4,cytopathic effect,,0.156 µM
C[C@H](NP(=O)(OC[C@@H]1C=C[C@H](n2ccc3c(N)ncnc32)C1)Oc1ccccc1)C(=O)OCc1ccccc1,,IIIB,MT-4,cytopathic effect / trypan blue,,>78 µM
NS(=O)(=O)c1ccc(OC(=O)c2ccccc2SSc2ccccc2C(=O)Oc2ccc(S(N)(=O)=O)cc2)cc1,,,CEM,XTT,,>162 µM
O=C1CS/C(=N\c2nc3ccccc3s2)N1c1ccc(I)cc1,,IIIB,MT-4,MTT,,>29 µM
N=C(N)c1cccc(Oc2ccccc2)c1,,,HUT4-3/SX22-1,β-galactosidase / cell fusion,,>10 µM
O=C1CSC(c2c(F)cccc2Cl)N1c1cc(Cl)cc(Cl)c1,,IIIB,MT-4,cytopathic effect,,0.32 µM
CCC(CC)Oc1ccc(NC(=O)c2ccccc2SSc2ccccc2C(=O)Nc2ccc(OC(CC)CC)cc2)cc1,,,CEM,XTT,,22 µM
Nc1nc2c(ncn2[C@H]2CC[C@@H](CO)O2)c(=O)o1,,IIIB,H9,RT activity,,>30 µg/mL
C[C@H](NP(=O)(OC[C@H]1C=C[C@@H](n2ccc3c(N)ncnc32)C1)Oc1ccccc1)C(=O)OCc1ccccc1,,IIIB,MT-4,cytopathic effect / trypan blue,,0.175 µM
Nc1nc2c(ncn2[C@@H]2O[C@H](CO)[C@@H](O)[C@H]2O)c(=O)o1,,IIIB,U-937/HIV-1(IIIB) + U-937,RT activity,,27 µg/mL
CC(C)C1=C2[C@H]3CC[C@@H]4[C@@]5(C)CC[C@H](OC(=O)[C@H]6C[C@@H](C(=O)O)C6(C)C)C(C)(C)[C@@H]5CC[C@@]4(C)[C@]3(C)CC[C@@]2(CC(=O)NCc2ccc(CN3CCOCC3)cc2)CC1=O,,92HT599,MT-2,p24 / ELISA,,<1 µM
O=C(N[C@@H](CO)C(=O)O)c1ccccc1SSc1ccccc1C(=O)N[C@@H](CO)C(=O)O,,,CEM,XTT,,>100 µM

Again, the opening 2 rows:

structure | conditions | strain | cells | read by | mutations | value
O=C(NCc1ccccc1)c1ccccc1SSc1ccccc1C(=O)NCc1ccccc1 |  |  | CEM | XTT |  | 5 µM
S=C(NCc1ccco1)Nc1nc2ccccc2s1 |  | IIIB | MT-4 | MTT |  | >67 µM